Measured values from several laboratories, pooled; numbers as filed in NIAID ChemDB.

Shared fields: tests in culture; agent: Mycobacterium tuberculosis

Blank or dashed fields: not listed here. Percent inhibition refers to the dose given; in toxicity tests it is the harm to the cells. ECn is the concentration giving n% inhibition of infection, replication or growth. MIC bound: limit read from a one-dose screen. Conditions beyond the fields shown may differ between rows.

SMILES,conditions,strain,measure,method,cell line,tested at,result
O=C1C(=O)N(CCN2CCN(Cc3ccccc3)CC2)c2c1cccc2C1CCCC1,-,H37Ra,MIC,-,-,-,≤20 µg/mL
COC(=O)c1c(C(=O)OC)c2c(Br)cc3ccccc3n2c1C(=O)c1ccc(C#N)cc1,-,H37Rv,MIC,resazurin,-,-,8 µg/mL
CSc1cc(C(N)=O)cc(Br)n1,-,H37Rv,MIC,-,-,-,>1000 µM
NCCCCNC(=O)c1csc(Nc2ccc(Cl)cc2)n1,-,-,inhibition,resazurin,-,6.25 µg/mL,13%
Nc1ccc(-c2csc(-n3cccc3)n2)cc1,-,H37Rv,MIC,resazurin,-,-,25 µg/mL
O=C1C(=O)N(CCN2CCN(Cc3ccccc3)CC2)c2ccc(N3CCCCC3)cc21,-,H37Rv,MIC,-,-,-,≤20 µg/mL
O=C1c2cc(Br)ccc2OP(=O)(c2ccccc2)N1c1ccc(C(F)(F)F)cc1,21 d,234/2005,MIC,-,-,-,1 µM
CCCCCCCCO[C@H]1O[C@H](CO[C@H]2O[C@H](CO)[C@@H](O)[C@@H]2O)[C@@H](OC)[C@@H]1OC,-,H37Ra,MIC,-,-,-,>128 µg/mL
COc1ccc(C2CC(c3ccc(NC(=O)C(c4ccc(Cl)cc4)C(C)C)cc3)=NN2C(C)=O)cc1,-,H37Rv,inhibition,BACTEC,-,6.25 µg/mL,0%
Cc1ccc(C)n1-c1nc(-c2ccc(F)cc2)cs1,-,H37Rv,MIC,resazurin,-,-,0.2 µg/mL
CSc1cc(C(N)=S)cc(Br)n1,-,H37Rv,MIC,-,-,-,500 µM
CN(C)CCCn1cnc2cc(Cl)c(Cl)cc21,-,H37Rv,inhibition,resazurin,-,6.25 µg/mL,-9%
NCCCCCNC(=O)c1csc(Nc2ccccc2)n1,-,-,inhibition,resazurin,-,6.25 µg/mL,66%
COc1cc(-c2csc(-n3cccc3)n2)cc(OC)c1OC,-,H37Rv,MIC,resazurin,-,-,50 µg/mL
Cc1nn(-c2ccccc2)c2c1C(c1cccc(Br)c1)C(C#N)=C(N)O2,-,H37Rv,inhibition,-,-,62.5 µg/mL,6%
NNC(=O)c1cnccn1,-,H37Rv,MIC,BACTEC,-,-,≥12.5 µg/mL
CCCCCCCN1C(=O)C(=O)c2cccc(-c3ccccc3)c21,-,H37Rv,MIC,-,-,-,≤20 µg/mL
O=C(CC(=O)c1ccccc1NC1=Cc2ccccc2C(=O)C1=O)C(=O)NC1=C(Cl)C(=O)c2ccccc2C1=O,-,H37Rv,MIC bound,BACTEC,-,-,>12.5 µg/mL
CCSc1cc(C(N)=S)cc(Cl)n1,-,H37Rv,MIC,-,-,-,125 µM
O=C1c2cc(Cl)ccc2OP(=O)(c2ccccc2)N1c1ccc(C(F)(F)F)cc1,21 d,9449/2007,MIC,-,-,-,1 µM
Cc1nn(-c2ccccc2)c2c1C(c1ccc(Cl)cc1)c1c(nc(=S)[nH]c1N)O2,-,H37Rv,inhibition,-,-,62.5 µg/mL,97%
COc1ccccc1C(=O)N(Cc1ccccc1)c1ccc(Cl)c(C(=O)OC(C)C)c1,-,H37Rv,inhibition,BACTEC,-,12.5 µg/mL,0%
Cc1ccc(C)n1-c1ccc(C(=O)NN2C(=O)CCC2=O)cc1,-,H37Rv,MIC,resazurin,-,-,12.5 µg/mL
CC(=O)c1c(C)n([O-])c2ccc(C)cc2[n+]1=O,inside macrophages,H37Rv,EC50,-,-,-,<2.5 µg/mL
COc1ccc(-c2c(N)[n+]([O-])c3ccccc3[n+]2[O-])cc1OC,-,H37Rv,MIC bound,BACTEC,-,-,>12.5 µg/mL
CC1COc2c(N3CCN(C)CC3)c(F)cc3c(=O)c(C(=O)O)cn1c23,-,900240,MIC,-,-,-,0.5 µg/mL
O=C(Nc1ccc(C(F)(F)F)cc1)c1cc(Cl)ccc1OP(=O)(c1ccccc1)c1ccccc1,14 d,My 331/88,MIC,-,-,-,2 µM
CN(C)CCC(=O)C(=Cc1ccco1)C(=O)CCN(C)C,-,H37Rv,inhibition,resazurin,-,6.25 µg/mL,-6%
COc1ccc(C)c(NCc2cnc3nc(N)nc(N)c3c2C)c1,-,H37Rv,MIC,-,-,-,6.25 µg/mL
CC(=O)N1N=C(c2ccc(NC(=O)C(c3ccc(Cl)cc3)C(C)C)cc2)CC1c1ccccc1,-,H37Rv,inhibition,BACTEC,-,6.25 µg/mL,95%
Cl.Cl.OCCN1CCCN(CCCN2c3ccccc3Sc3ccc(C(F)(F)F)cc32)CC1,-,H37Rv,inhibition,BACTEC,-,12.5 µg/mL,99%
C=C1CC(=O)N(NC(=O)c2ccc(-n3cccc3)cc2)C1=O,-,H37Rv,MIC,resazurin,-,-,3.125 µg/mL
Cc1c(CNc2cccc3c2CCCC3)cnc2nc(N)nc(N)c12,-,H37Rv,MIC,-,-,-,12.5 µg/mL
Cc1c(C(=O)c2ccccc2)[n+](=O)c2ccccc2n1[O-],-,H37Rv,MIC,BACTEC,VERO,-,6.25 µg/mL
CC[C@H](CC[C@@H](C)[C@H]1CC[C@H]2[C@@H]3C(=O)C=C4C[C@@H](O)CC[C@]4(C)[C@H]3CC[C@]12C)C(C)C,-,H37Rv,MIC,-,-,-,1.98 µg/mL
COc1ccc(Nc2nc(NS(=O)(=O)c3cc(C)c(Cl)cc3S)n[nH]2)cc1,-,H37Rv,MIC bound,BACTEC,-,-,>12.5 µg/mL
COc1cc(C2C=C(c3ccc(NC(=O)C(c4ccc(Cl)cc4)C(C)C)cc3)OC(N)=C2C#N)cc(OC)c1OC,-,H37Rv,inhibition,BACTEC,-,6.25 µg/mL,0%
CC[C@H](CC[C@@H](C)[C@H]1CC[C@H]2[C@@H]3CC=C4C[C@@H](O[C@@H]5O[C@H](CO)[C@@H](O)[C@H](O)[C@H]5O)CC[C@]4(C)[C@H]3CC[C@]12C)C(C)C,-,H37Rv,MIC,-,-,-,>128 µg/mL
Cc1nn(-c2ccccc2)c2c1C(c1ccccc1Cl)c1c(nc(=O)[nH]c1N)O2,-,H37Rv,inhibition,-,-,62.5 µg/mL,38%
CN(C)C/C=C(/c1ccccc1)c1ccc(-c2ccc(Br)cc2)cc1,-,H37Ra,MBC,-,-,-,16 µg/mL
COc1ccc(NC(=S)Nc2c(C)n(C)n(-c3ccccc3)c2=O)cc1,-,H37Rv,MIC bound,resazurin,-,-,>6.25 µg/mL
CCCCCCCCCCCCCCCCC(=O)OC[C@H]1O[C@@H](O[C@H]2CC[C@@]3(C)C(=CC[C@H]4[C@@H]5CC[C@H]([C@H](C)CC[C@@H](CC)C(C)C)[C@@]5(C)CC[C@@H]43)C2)[C@H](O)[C@@H](O)[C@@H]1O,-,H37Rv,MIC,-,-,-,128.1 µg/mL
O=c1cc[nH]c2c1ccc1[nH]ccc(=O)c12,-,H37Rv,MIC bound,BACTEC,-,-,>12.5 µg/mL
O=C(Nc1ccc(Br)cc1)c1cc(Cl)ccc1OP(=O)(Oc1ccccc1)Oc1ccccc1,7 d,My 331/88,MIC,-,-,-,4 µM
CCCCCCCCO[C@H]1O[C@H](CO[C@H]2O[C@H](COC(=O)c3ccccc3)[C@@H](OC(=O)c3ccccc3)[C@@H]2OC(=O)c2ccccc2)[C@@H](O)[C@@H]1O,-,H37Ra,MIC,-,-,-,>128 µg/mL
CCCSc1cc(C(N)=S)cc(Cl)n1,-,H37Rv,MIC,-,-,-,125 µM
Cn1nc2c(c(Cl)c1=O)Nc1ccccc1O2,-,H37Rv,inhibition,BACTEC,-,12.5 µg/mL,3%
CCc1cc(C(N)=S)ccn1,-,1 LAB strain (TH1314-RES),MIC,-,-,-,10 µg/mL
Cc1nn(-c2ccccc2)c2c1C(c1cccc([N+](=O)[O-])c1)c1c(nc(=S)[nH]c1N)O2,-,H37Rv,inhibition,-,-,62.5 µg/mL,33%
O=C(N/N=C/C12CC3CC(CC(C3)C1)C2)c1ccncc1,-,H37Rv,MIC,luminescence,-,-,0.04 µg/mL
CC(=O)c1c(COc2ccc([N+](=O)[O-])cc2)n([O-])c2ccccc2[n+]1=O,-,H37Rv,inhibition,BACTEC,VERO,6.25 µg/mL,97%
CCOc1ccc(OCC)c(N(C)Cc2cnc3nc(N)nc(N)c3c2C)c1,-,H37Rv,MIC,-,-,-,>12.5 µg/mL
CCCCCCSc1cc(C(N)=S)cc(SCCCC)n1,-,H37Rv,MIC,-,-,-,30 µM
CC[C@H](/C=C/[C@@H](C)[C@H]1CC[C@H]2[C@@H]3CC=C4C[C@@H](O[C@@H]5O[C@H](CO)[C@@H](O)[C@H](O)[C@H]5O)CC[C@]4(C)[C@H]3CC[C@]12C)C(C)C,-,H37Rv,MIC,-,-,-,>128 µg/mL
O=C1OC(C[N+]2(Cc3ccc([N+](=O)[O-])o3)CCCCC2)CN1/N=C/c1ccc([N+](=O)[O-])o1,-,H37Rv,MIC bound,BACTEC,-,-,>12.5 µg/mL
CC[C@H](/C=C/[C@@H](C)[C@H]1CC[C@H]2[C@@H]3C[C@@H](O)C4=CC(=O)CC[C@]4(C)[C@H]3CC[C@]12C)C(C)C,-,H37Rv,MIC,-,-,-,2.2 µg/mL
CC(=O)N1N=C(c2ccc(NC(=O)C(c3ccc(Cl)cc3)C(C)C)cc2)CC1c1ccco1,-,H37Rv,inhibition,BACTEC,-,6.25 µg/mL,0%
O=C(N/N=C/C12CC3CC(C1)CC(C1CCCC1)(C3)C2)c1ccncc1,-,H37Rv,MIC,luminescence,-,-,0.06 µg/mL
COc1cc([C@H]2c3cc(O)c(OC)cc3C[C@H]3C(=O)OC[C@H]23)ccc1O,-,H37Rv,MIC,BACTEC,-,-,≥12.5 µg/mL
Cc1nn(-c2ccccc2)c2c1C(c1ccccc1)c1c(nc(=O)[nH]c1N)O2,-,H37Rv,inhibition,-,-,62.5 µg/mL,8%
C(CON/N=C/c1ccncc1)=C1C2CC3CC(C2)CC1C3,-,H37Rv,MIC,luminescence,-,-,>100 µg/mL
Cc1c(CN2CCN(C)CC2)cc(-c2ccc(Cl)cc2)n1-c1ccc(Cl)cc1,-,103471,MIC,-,-,-,0.7 µg/mL
O=S1(F)=NP(N2CC2)(N2CC2)=NP(N2CC2)(N2CC2)=N1,-,H37Rv,MIC,BACTEC,-,-,≥128 µg/mL
COc1ccc(C2C=C(c3ccc(NC(=O)C(c4ccc(Cl)cc4)C(C)C)cc3)OC(N)=C2C#N)cc1,-,H37Rv,inhibition,BACTEC,-,6.25 µg/mL,0%
NCCCCCCNC(=O)c1csc(Nc2ccc(Cl)cc2)n1,-,-,inhibition,resazurin,-,6.25 µg/mL,21%
COc1cc(NCc2cnc3nc(N)nc(N)c3c2C)cc(OC)c1OC,-,H37Rv,MIC,-,-,-,>12.5 µg/mL
O=C(N/N=C/CC12CC3CC(CC(C3)C1)C2)c1ccncc1,-,H37Rv,MIC,luminescence,-,-,0.05 µg/mL
Cc1nn(-c2ccccc2)c2c1C(c1cccc(Br)c1)c1c(nc(=S)[nH]c1N)O2,-,H37Rv,inhibition,-,-,62.5 µg/mL,42%
O=C1c2cscc2C(=O)c2cscc21,-,H37Rv,MIC bound,resazurin,-,-,<6.25 µg/mL
COc1ccc(N2CCN(Cc3c(C(C)=O)[n+](=O)c4cc(C)c(C)cc4n3[O-])CC2)cc1,-,H37Rv,EC50,BACTEC,-,-,>6.25 µg/mL
O=C(O)/C=C/c1ccc(O)cc1,-,H37Rv,MIC,-,-,-,>128 µg/mL
COc1ccc(C2c3c(nc(=O)[nH]c3N)Oc3c2c(C)nn3-c2ccccc2)cc1,-,H37Rv,inhibition,-,-,62.5 µg/mL,53%
CCOC(=O)c1c(N)sc2c1C(C(=O)OCC)CC2,-,H37Rv,inhibition,resazurin,-,6.25 µg/mL,3%
CCCCCCSc1cc(C(N)=O)cc(SCC)n1,-,H37Rv,MIC,-,-,-,60 µM
COc1cc(C2(c3ncc[nH]3)S[C@@H](c3c(/C(=N/O)C(=O)O)[nH]c4ccccc34)SC[C@H]2O)ccc1O,-,H37Rv,inhibition,-,-,12.5 µg/mL,10%
CCN(CCCCN1C(=O)C(=O)c2ccccc21)Cc1ccccc1,-,H37Ra,MIC,-,-,-,≤20 µg/mL
CC(=O)c1c(CBr)n([O-])c2ccccc2[n+]1=O,-,H37Rv,EC50,BACTEC,-,-,>6.25 µg/mL
O=C1CN(c2cccc(C(F)(F)F)c2)C(=O)CN1/N=C/c1ccc[nH]1,-,H37Rv,MIC bound,BACTEC,-,-,>12.5 µg/mL
CC(=O)c1c(CN2CCN(c3ccc([N+](=O)[O-])cc3)CC2)n([O-])c2cc(C)c(C)cc2[n+]1=O,-,H37Rv,EC50,BACTEC,-,-,>6.25 µg/mL
CCOC(=O)c1ccc(OC)c2[nH]c3c(c(=O)c12)C(=O)c1[nH]c2c(OC)ccc(C(=O)OCC)c2c(=O)c1C3=O,-,H37Rv,inhibition,BACTEC,-,12.5 µg/mL,7%
CC(C)C(C(=O)Nc1ccc(C2=CC(c3c(Cl)cccc3Cl)C(C#N)=C(N)O2)cc1)c1ccc(Cl)cc1,-,H37Rv,inhibition,BACTEC,-,6.25 µg/mL,0%
COC(=O)c1cc(NC(=O)O/N=C/c2cccnc2)cc(C(=O)OC)c1,-,H37Rv,MIC bound,BACTEC,-,-,>12.5 µg/mL
O=C(Nc1ccc(Cl)cc1)c1cc(Cl)ccc1OP(=O)(c1ccccc1)c1ccccc1,7 d,My 331/88,MIC,-,-,-,4 µM
Cc1ccc(S(=O)(=O)n2oc(=O)c(C3CCCCC3)c2N)cc1,-,H37Rv,inhibition,resazurin,-,6.25 µg/mL,13%
COc1ccc(C(F)(F)F)cc1NCc1cnc2nc(N)nc(N)c2c1C,-,H37Rv,MIC,-,-,-,1.56 µg/mL

For reference, 5 entries again:

SMILES	conditions	strain	measure	method	cell line	tested at	result
Cn1nc2c(c(Cl)c1=O)Nc1ccccc1O2	-	H37Rv	inhibition	BACTEC	-	12.5 µg/mL	3%
NCCCCCNC(=O)c1csc(Nc2ccccc2)n1	-	-	inhibition	resazurin	-	6.25 µg/mL	66%
Cc1nn(-c2ccccc2)c2c1C(c1cccc(Br)c1)C(C#N)=C(N)O2	-	H37Rv	inhibition	-	-	62.5 µg/mL	6%
O=C(O)/C=C/c1ccc(O)cc1	-	H37Rv	MIC	-	-	-	>128 µg/mL
CC[C@H](/C=C/[C@@H](C)[C@H]1CC[C@H]2[C@@H]3C[C@@H](O)C4=CC(=O)CC[C@]4(C)[C@H]3CC[C@]12C)C(C)C	-	H37Rv	MIC	-	-	-	2.2 µg/mL